Several values for one entry are separate records, joined by “and”; a condition that tells them apart may be missing. Equal entries are not always repeated.
system: T. cruzi intracellular amastigote proliferation; assay: In vitro T. cruzi intracellular proliferation assay in infected U2OS cells, high-content imaging; type: cell-based, Trypanosoma cruzi (Y strain); conditions: selectivity index, U2OS cells vs T. cruzi proliferation assay
Procedure: DMSO control wells contained 30 μL 6% DMSO. Human […] (U2OS cells) were diluted in DMEM, 10% heat inactivated-fetal bovine serum (HI-FBS) to give a cell density of 2 x 10^5 cells/mL. T. cruzi trypomastigotes were resuspended in DMEM, 10% HI-FBS to a final density of 1.2 x 10^7. Cells and parasites were mixed a ratio of 4 volumes of cells plus 1 volume of parasites. 150 μL of the mixture were dispensed per well. Plates were incubated for 48 h. After the incubation period, media was removed from the wells and 100 μL 4% paraformaldehyde (PFA) were added. After 15 min of incubation at room temperature, PFA was removed and cells and parasites were stained with Draq5 (BioStatus, Leicestershire, UK) at a concentration of 5 μM diluted in PBS. The plates were then read in a bioimager system as described below. Three independent experiments were performed in triplicate wells.
Filter sets appropriate for the excitation and emission spectra of Draq5 were utilized. Images from four fields (2 x 2 montage) were acquired per well with a 20x objective. To perform the host cell segmentation and counting of parasites, the BD AttoVision v1.6.2 Sub Object analysis was used. Draq5 creates a background, staining the host cell and parasite nucleus, but defining the cytoplasm as well, determining this way the amount of parasites within each mammalian cell. The host cell nucleus was excluded by size difference. Raw data was imported into the BD Image Data Explorer (BD Biosciences) to determine the percentage of infected cells containing at least 1, at least 3 or at least 5 intracellular parasites.
EC50 were determined from three independent experiments.

Compound | T. cruzi proliferation assay S.I.
Cc1c(NS(=O)(=O)c2c(Cl)cc(-c3ccnc(N4CCNCC4)c3)cc2Cl)c(CC(C)C)nn1C [Compound 1] | 71 and 71.1
Cc1nn(C)c(Cl)c1NS(=O)(=O)c1c(Cl)cc(-c2ccnc(N3CCNCC3)c2)cc1Cl [Compound 2] | > 43.9
Cc1c(NS(=O)(=O)c2ccc(CCCC3CCN(C)CC3)cc2)c(CC(C)C)nn1C [Compound 4] | > 93 and > 92.6
Cc1nn(C)c(C)c1N(C(F)F)S(=O)(=O)c1c(Cl)cc(CCCC2CCN(C)CC2)cc1Cl [Compound 5] | 44 and 43.8
Cc1c(NS(=O)(=O)c2ccc(-c3cccc(CN(C)C)c3)cc2)c(CC(C)C)nn1C [Compound 6] | > 51 and > 50.5
Cc1nn(C)c(C)c1N(CC(F)(F)F)S(=O)(=O)c1c(Cl)cc(CCCC2CCN(C)CC2)cc1Cl [Compound 7] | 13.8
Cc1nn(C)c(C)c1N(C(F)F)S(=O)(=O)c1c(Cl)cc(CCCCC2CCN(C)CC2)cc1Cl [Compound 8] | 33 and 33.1
